Primary screen of a compound library

A: 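Whole-cell growth test on Mycobacterium tuberculosis, read after 3 days in glucose-containing 7H9 medium; the read-out is not stated. Tested at 500 µM. Direction is inferred from retests: higher values go with more growth inhibition. Of about 18,000 compounds tested this way, about 1,400 (7.9%) reached 50% or more in at least one test.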
B: 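Growth of Mycobacterium tuberculosis over 4 days (cholesterol / DPPC medium with tyloxapol); the read-out is not stated. Tested at 500 µM. The record gives no direction; compounds that gave an IC50 in retests scored well above the rest, so higher reads as more growth inhibition. About 18,000 compounds were tested under these conditions; 5% (about 900) showed 50% or more at least once.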

The filed quantity is “Percent Effect” (%).
The controls that fix the scale are not given in the record; negative values are as filed.
The entries come from a sample that favours strong results.
A dash means the value is not listed here; it may have been measured.

compound: CC(CO)CNC(=O)c1cnc(OC(C)C)c(Cl)c1 (configuration not stated)
A: 38.84%
B: 33.52%

compound: NCCc1ccc(Cl)s1
B: 27.22%

compound: CC(N)c1nc2c(s1)CCC2 (configuration not stated)
A: -8.962%

compound: CNCc1nncn1-c1ccccc1Cl
A: 10.72%

compound: N[C@@H]1C[C@H]1c1cc(F)ccc1F
A: 37%

compound: CCC=C(C)C(=O)NCC(=O)N1CCCC1
A: 8.175%

compound: CN(C)CCNCCOCCO
A: -15.18%

compound: O=C(NCCN1CCNCC1)C1CCC1
A: -5.502%

compound: CS(=O)(=O)NCCCNC(=O)c1cn2ccccc2n1
B: -2.967%

compound: CCc1c[nH]c(S(=O)(=O)Cc2noc(C(C)C)n2)n1
B: -10.3%

compound: OCCCNCC(O)COc1ccccc1 (configuration not stated)
A: -5.187%

compound: Cc1cc(Br)cc(C(=O)OC(C)C(N)=O)c1 (configuration not stated)
A: -4.594%
B: -12.85%

compound: COc1cccc(CNCCCN2CCCC2=O)c1
B: 3.106%

compound: OC[C@@H](Cc1ccccc1)NC1CCCOC1 (some centres not stated)
B: 3.828%

compound: CC(C)[C@@H]1CCO[C@@H]1CN
A: 8.198%

compound: CS(=O)(=O)c1ccc(NC(=O)Cn2ccnc2)cc1
A: 10.91%
B: -10.15%

compound: CCNc1ncc(C(=O)N(C)Cc2ccsc2)cn1
A: 57.77%

compound: COC(=O)c1sccc1NC(=O)c1ccnn1C
A: -5.245%

compound: O=S1(=O)CCN(Cc2nccn2C2CC2)CC1
A: -10.59%

compound: NC(=O)c1ccsc1NC(=O)CCN1CCCCC1
A: 53.99%
B: 35.99%

compound: CC(C)CCn1ccc(NC(=O)C2(O)CCC2)n1
A: 48.76%
B: 65.4%

compound: NC1CCN(C(=O)Nc2ccccc2)C1 (configuration not stated)
A: -7.854%

compound: CCC(=O)Nc1cccc(C(=O)Nc2cc(C)on2)c1
A: 4.018%

compound: Cc1ncsc1C(=O)Nc1cc(Br)c(=O)n(C)c1
A: -2.982%

compound: COc1cccc(N2CCC(CN)C2)c1 (configuration not stated)
A: 87.08%
B: 90.94%

compound: CN1C(=O)CNc2ccccc21
A: -29.21%

compound: CCOC(=O)N1CCN(Cc2nc(C3CC3)no2)CC1
A: 83.24%
B: 88.9%

compound: O=C1NCCNC1c1ccccc1 (configuration not stated)
A: 47.05%

compound: CNCCNC(C)=O
A: -14.5%

compound: CCc1noc(CN2CCCC(O)C2)n1 (configuration not stated)
A: 11.08%

compound: c1ccc(COC2CCNC2)nc1 (configuration not stated)
A: -3.885%

compound: O=C(c1c(F)cc(F)cc1F)C1CCNCC1
A: 22.65%

compound: Cn1nnnc1SCCOc1cccc(F)c1
A: 66.35%
B: 69.07%

Once more, the final 4:

compound	A	B
CCc1noc(CN2CCCC(O)C2)n1 (configuration not stated)	11.08%	-
c1ccc(COC2CCNC2)nc1 (configuration not stated)	-3.885%	-
O=C(c1c(F)cc(F)cc1F)C1CCNCC1	22.65%	-
Cn1nnnc1SCCOc1cccc(F)c1	66.35%	69.07%

Measurements from “University of Dundee, Small-Polar-MMV Screening Library” (2021), ChEMBL document CHEMBL3988442.